The source of these data is US9901592B2 (priority 2008, dated 2018).

≈ marks a conversion by molar mass, not a printed value. Where two headings read alike, the source gives them in different places.

Type in all cases: cell-based
The subject of assay [1] is S. pyogenes.
In assay [2] the test system is S. pneumoniae.
Assay [3] relates to S. pneumoniae. In words: microbe, parasite or virus in culture. To be noted: Streptococcus pneumoniae, read-out: Selected Resistance MIC, strain 7127 Macrolide-S [S20N in L4, A105V in L22], after serial passages in the drug.

Consider `CCC[C@@H]1C[C@@H](C(=O)N[C@@H]([C@H]2O[C@H](SC)[C@H](O)[C@@H](O)[C@H]2O)[C@H](C)Cl)N(C)C1` [CLN, clindamycin], for which the Mutant selection frequencies is reported as <7.7×10^−11-2.1×10^−7 in assay [1] (at 2×MIC), <7.7×10^−11-1.1×10^−7 in assay [1] (at 8×MIC), <2.4×10^−10-1.7×10^−4 in assay [2] (at 2×MIC) and <1.2×10^−10-5.6×10^−7 in assay [2] (at 8×MIC). The MIC in assay [3] was 0.25 µg/mL (≈ 0.588 µM).
